The results in this text go back to publication PMC7551932 (Toxins, 2020).

Chains of the proteins cited; added tags and fusions are not shown. A line that says so, or that is headed by a name, gives the form on record, which may keep a tag or linker.
UniProt P08104, whole entry: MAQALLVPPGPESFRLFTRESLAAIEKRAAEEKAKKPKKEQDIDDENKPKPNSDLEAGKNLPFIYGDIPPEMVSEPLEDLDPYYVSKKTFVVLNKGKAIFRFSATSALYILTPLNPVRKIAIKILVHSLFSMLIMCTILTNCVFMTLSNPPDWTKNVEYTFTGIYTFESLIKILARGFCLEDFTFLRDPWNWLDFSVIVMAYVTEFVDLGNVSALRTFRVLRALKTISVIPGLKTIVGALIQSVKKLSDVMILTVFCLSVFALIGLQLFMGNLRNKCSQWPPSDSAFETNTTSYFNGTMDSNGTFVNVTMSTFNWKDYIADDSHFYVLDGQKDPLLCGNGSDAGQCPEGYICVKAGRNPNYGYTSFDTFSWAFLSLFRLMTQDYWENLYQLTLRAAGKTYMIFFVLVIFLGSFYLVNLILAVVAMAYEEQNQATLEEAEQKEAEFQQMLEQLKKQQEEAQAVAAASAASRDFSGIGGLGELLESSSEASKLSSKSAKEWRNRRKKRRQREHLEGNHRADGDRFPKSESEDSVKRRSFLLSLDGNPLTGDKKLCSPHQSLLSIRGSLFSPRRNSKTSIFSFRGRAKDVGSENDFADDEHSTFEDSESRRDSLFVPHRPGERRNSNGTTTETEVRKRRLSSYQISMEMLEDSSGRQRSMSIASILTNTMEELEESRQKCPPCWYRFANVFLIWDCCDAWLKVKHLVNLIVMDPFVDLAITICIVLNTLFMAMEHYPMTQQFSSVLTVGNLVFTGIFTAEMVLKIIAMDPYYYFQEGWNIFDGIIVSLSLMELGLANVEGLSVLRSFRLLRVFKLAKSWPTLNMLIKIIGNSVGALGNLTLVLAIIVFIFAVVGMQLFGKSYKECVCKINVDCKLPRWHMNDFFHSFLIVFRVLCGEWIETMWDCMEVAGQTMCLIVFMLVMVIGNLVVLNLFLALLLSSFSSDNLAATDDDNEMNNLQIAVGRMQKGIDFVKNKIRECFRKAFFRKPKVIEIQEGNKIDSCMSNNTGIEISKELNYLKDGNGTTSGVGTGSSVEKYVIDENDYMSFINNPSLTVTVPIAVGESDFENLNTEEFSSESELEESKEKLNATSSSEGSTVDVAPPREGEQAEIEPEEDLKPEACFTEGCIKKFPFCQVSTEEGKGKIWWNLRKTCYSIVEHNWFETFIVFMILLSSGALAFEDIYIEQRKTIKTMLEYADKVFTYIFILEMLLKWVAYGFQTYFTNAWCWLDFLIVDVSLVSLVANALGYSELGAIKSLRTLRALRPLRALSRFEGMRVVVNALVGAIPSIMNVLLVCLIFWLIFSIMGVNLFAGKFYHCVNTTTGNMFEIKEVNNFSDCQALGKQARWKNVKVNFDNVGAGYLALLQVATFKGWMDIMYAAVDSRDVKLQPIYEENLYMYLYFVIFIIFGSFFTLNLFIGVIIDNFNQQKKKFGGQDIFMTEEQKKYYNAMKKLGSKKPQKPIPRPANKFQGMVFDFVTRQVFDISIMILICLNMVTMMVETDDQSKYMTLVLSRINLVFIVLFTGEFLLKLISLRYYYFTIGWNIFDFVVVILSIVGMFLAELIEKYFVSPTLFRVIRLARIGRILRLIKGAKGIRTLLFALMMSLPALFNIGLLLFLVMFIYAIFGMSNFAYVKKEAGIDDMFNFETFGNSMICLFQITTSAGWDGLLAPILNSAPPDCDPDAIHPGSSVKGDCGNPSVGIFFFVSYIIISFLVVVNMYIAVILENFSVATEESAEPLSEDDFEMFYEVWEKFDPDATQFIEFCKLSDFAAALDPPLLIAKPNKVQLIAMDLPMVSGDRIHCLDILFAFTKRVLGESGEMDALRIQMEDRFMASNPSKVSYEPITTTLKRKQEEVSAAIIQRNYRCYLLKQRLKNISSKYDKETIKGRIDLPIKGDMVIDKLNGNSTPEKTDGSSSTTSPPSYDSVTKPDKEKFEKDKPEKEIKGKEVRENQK
UniProt P15390, whole entry: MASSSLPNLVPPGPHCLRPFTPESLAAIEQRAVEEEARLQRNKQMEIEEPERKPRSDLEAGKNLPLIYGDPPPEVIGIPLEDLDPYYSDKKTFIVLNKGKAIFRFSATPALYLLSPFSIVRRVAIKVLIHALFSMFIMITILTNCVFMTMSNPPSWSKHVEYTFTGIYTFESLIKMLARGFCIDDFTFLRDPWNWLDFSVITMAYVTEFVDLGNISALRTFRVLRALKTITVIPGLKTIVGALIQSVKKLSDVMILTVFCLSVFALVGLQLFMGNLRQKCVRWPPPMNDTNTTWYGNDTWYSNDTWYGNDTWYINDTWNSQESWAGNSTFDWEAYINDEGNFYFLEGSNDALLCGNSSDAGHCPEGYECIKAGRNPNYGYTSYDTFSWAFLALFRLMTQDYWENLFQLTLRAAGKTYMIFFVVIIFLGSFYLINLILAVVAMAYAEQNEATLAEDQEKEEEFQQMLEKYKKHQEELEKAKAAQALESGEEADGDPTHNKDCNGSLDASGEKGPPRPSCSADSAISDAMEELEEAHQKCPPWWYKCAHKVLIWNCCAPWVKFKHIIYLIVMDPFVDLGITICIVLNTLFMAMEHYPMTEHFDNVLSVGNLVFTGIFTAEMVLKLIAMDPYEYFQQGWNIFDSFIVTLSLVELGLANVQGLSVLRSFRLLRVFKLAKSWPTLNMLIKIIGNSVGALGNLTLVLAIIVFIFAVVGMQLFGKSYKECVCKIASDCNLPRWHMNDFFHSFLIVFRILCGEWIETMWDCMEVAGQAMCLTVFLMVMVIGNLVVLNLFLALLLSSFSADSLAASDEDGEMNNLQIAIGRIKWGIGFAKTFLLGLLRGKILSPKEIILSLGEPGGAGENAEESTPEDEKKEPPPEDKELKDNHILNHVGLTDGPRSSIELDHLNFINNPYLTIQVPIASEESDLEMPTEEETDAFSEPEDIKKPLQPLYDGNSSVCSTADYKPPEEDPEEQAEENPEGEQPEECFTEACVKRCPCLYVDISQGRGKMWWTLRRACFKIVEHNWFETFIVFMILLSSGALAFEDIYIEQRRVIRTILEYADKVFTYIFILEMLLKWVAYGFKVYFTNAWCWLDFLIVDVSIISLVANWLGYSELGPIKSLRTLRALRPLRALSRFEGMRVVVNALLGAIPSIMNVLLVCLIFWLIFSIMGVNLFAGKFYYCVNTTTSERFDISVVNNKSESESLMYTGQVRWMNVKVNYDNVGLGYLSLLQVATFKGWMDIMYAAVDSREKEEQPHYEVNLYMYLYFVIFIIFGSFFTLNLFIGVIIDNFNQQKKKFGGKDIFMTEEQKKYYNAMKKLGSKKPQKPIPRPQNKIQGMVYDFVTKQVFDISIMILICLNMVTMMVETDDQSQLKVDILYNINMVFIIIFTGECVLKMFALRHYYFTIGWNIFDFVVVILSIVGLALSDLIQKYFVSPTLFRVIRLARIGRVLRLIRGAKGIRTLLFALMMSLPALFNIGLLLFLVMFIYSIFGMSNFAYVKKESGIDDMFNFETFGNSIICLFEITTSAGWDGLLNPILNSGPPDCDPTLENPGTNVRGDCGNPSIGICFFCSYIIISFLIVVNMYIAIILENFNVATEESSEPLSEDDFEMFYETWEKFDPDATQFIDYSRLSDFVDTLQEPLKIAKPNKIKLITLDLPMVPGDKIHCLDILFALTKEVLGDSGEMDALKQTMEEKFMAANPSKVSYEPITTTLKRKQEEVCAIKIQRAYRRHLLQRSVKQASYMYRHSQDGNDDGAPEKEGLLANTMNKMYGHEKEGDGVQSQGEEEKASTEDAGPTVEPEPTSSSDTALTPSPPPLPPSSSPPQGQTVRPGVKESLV
UniProt Q15858, other isoform, or with tags, fused parts or gaps: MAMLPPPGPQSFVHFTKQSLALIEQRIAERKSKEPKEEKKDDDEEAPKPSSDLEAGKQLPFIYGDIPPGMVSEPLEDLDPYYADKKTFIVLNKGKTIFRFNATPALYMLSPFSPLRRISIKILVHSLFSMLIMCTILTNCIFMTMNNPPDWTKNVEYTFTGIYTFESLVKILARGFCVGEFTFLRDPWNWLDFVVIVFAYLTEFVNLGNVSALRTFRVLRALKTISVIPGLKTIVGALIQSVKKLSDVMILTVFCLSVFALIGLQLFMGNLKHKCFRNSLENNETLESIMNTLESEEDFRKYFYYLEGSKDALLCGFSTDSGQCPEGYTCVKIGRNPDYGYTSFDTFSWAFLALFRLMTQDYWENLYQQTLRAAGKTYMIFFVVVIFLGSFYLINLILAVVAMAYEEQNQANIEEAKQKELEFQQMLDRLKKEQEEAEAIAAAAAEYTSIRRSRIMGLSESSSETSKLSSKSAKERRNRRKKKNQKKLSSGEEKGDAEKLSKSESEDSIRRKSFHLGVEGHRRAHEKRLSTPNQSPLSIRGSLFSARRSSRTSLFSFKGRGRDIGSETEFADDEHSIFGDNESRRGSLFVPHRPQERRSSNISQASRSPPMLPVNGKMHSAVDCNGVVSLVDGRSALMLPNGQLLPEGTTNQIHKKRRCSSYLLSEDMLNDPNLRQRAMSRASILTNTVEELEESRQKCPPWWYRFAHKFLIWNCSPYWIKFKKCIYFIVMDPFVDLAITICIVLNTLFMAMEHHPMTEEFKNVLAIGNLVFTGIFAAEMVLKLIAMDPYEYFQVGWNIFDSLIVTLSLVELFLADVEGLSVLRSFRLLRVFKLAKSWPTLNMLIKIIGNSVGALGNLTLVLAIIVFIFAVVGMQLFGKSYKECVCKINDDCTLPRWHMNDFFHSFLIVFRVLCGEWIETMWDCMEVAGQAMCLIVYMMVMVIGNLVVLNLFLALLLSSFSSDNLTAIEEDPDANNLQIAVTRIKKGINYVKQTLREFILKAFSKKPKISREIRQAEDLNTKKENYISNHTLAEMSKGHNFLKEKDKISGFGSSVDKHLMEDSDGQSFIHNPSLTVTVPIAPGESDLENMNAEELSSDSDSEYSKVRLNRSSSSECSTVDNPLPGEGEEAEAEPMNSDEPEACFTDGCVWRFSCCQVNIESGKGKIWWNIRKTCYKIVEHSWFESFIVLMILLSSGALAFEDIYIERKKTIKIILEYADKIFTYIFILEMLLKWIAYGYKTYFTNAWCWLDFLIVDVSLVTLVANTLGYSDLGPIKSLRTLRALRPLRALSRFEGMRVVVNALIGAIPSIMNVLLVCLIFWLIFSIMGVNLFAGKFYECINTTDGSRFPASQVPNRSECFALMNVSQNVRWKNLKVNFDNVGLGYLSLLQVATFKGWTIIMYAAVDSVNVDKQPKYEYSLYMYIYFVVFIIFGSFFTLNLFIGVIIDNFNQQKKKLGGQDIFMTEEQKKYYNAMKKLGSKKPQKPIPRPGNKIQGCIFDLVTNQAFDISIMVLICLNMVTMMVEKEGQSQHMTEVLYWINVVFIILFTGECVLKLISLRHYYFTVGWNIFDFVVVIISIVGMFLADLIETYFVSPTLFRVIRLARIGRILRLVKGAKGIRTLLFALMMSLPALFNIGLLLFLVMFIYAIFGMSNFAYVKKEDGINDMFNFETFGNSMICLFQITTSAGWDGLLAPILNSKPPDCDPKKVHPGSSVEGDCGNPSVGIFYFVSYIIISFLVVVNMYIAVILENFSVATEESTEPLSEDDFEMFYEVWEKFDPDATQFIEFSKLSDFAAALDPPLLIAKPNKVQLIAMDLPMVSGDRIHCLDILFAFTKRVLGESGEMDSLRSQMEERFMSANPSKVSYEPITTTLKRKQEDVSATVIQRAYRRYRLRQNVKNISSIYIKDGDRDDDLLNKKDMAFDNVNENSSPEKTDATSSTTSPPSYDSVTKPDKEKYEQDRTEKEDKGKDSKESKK

Common to all, as to assay: cell-based
In test [1] the target is T1, rNaV1.2 (Rattus norvegicus, UniProt P04775).
T1 construct: expressed in transfected cells; host or cells: HEK293T

The target in test [2] is T2, rNaV1.3 (Rattus norvegicus, UniProt P08104).
T2 construct: expressed in transfected cells; host or cells: HEK293T

The target in test [3] is T3, rNaV1.4 (Rattus norvegicus, UniProt P15390).
T3 construct: expressed in transfected cells; host or cells: HEK293T

The target of test [4] is T4, mNaV1.6 (Mus musculus, UniProt Q9WTU3).
T4 construct: expressed in transfected cells; host or cells: HEK293T

For test [5], the target named is T5, hNaV1.7 (Homo sapiens, UniProt Q15858).
T5 construct: expressed in transfected cells; host or cells: HEK293T

For `CC[C@H](C)[C@H](NC(=O)[C@H](CCCCN)NC(=O)[C@H](Cc1ccc(O)cc1)NC(=O)[C@H](CCCCN)NC(=O)[C@@H]1CSSC[C@@H]2NC(=O)[C@H](CCC(=O)O)NC(=O)[C@H](CC(=O)O)NC(=O)[C@H](CCCCN)NC(=O)CNC(=O)[C@@H]3CCCN3C(=O)[C@H]([C@@H](C)O)NC(=O)[C@@H]3CSSC[C@H](NC(=O)[C@H](C(C)C)NC(=O)[C@H](Cc4c[nH]cn4)NC(=O)[C@H](CC(N)=O)NC(=O)[C@@H]4CCCN4C(=O)[C@H](CSSC[C@H](NC(=O)[C@H](C)N)C(=O)N[C@@H](CCCCN)C(=O)NCC(=O)N[C@@H]([C@@H](C)CC)C(=O)N[C@@H](Cc4ccccc4)C(=O)N[C@@H](C(C)C)C(=O)N[C@@H]([C@@H](C)O)C(=O)N3)NC2=O)C(=O)N[C@@H](CO)C(=O)N[C@@H](CO)C(=O)N[C@@H](CCCCN)C(=O)N[C@@H](Cc2c[nH]cn2)C(=O)N[C@@H](CCCCN)C(=O)N[C@@H](Cc2c[nH]c3ccccc23)C(=O)N1)C(=O)O` [Cl6b], the IC50 was found to be 0.0356 ± 0.0073 µM in test [1]; 0.0616 ± 0.0152 µM in test [2]; 0.0515 ± 0.0069 µM in test [3]; 0.0126 ± 0.0003 µM in test [4]; 0.0188 ± 0.0024 µM in test [5].
